Results published in PubChem BioAssay AID2472 (National Center for Advancing Translational Sciences (NCATS), 2010).
The entries are a selection whose mix differs from that of the whole data set. Some structures show a salt or complex split into parts, the way the source records it. Activity calls are given as the source filed them. Cut-off read from the data, not from the text of the source: active = activity change below about -30%; inactive = the rest, inconclusive results apart.

assay: qHTS Assay for Inhibitors of Fructose-1,6-bisphosphate Aldolase from Giardia Lamblia: Coupling assay counterscreen; conditions: coupling enzyme system counterscreen, AmpLite Red fluorescence; at 58.2 µM (top of the series)
Source text: MLPCN Grant: MH085699-01 Assay Provider: Osnat Herzberg, University of Maryland NCGC Assay Overview: The objective of this project is to obtain compounds that inhibit Giardia lamblia growth. G. lamblia is a human pathogen which afflicts impoverished nations; it is the most common cause of outbreaks of diarrhea in the United States. During the course of our study of potential drug targets in Giardia, we have identified the Class II (Zn2+ functions in electrophilic catalysis) fructose-1,6-bisphosphate aldolase (FBPA) as an excellent candidate for drug targeting. FBPA is a key glycolytic pathway enzyme, essential for G. lamblia survival. The human FBPA belongs to the Class I aldolases, which have a different substrate binding site structure and a radically different catalytic mechanism (employing a lysine-Schiff base intermediate). Therefore, affinity-based or mechanism-based inhibitors of the Giardia FBPA are expected not to interfere with the catalytic function of the human FBPA. A glyceraldehyde-3-phosphate dehydrogenase/triose phosphate isomerase/NAD/arsenate coupled assay was adapted to the 1536-well HTP format for use in the primary screen. This was done by coupling it to a diaphorase/resazurin/resorufin reaction that can be monitored by fluorescence (excitation, 544 nm; emission, 590 nm). Compounds identified in this screen will be further evaluated by coupling the […]/triose phosphate isomerase/NADH assay to a phenazine methosulfate/tetranitroblue tetrazolium color reaction. False positives due to the dehydrogenases and diaphorase inhibition will be eliminated, and selectivity assay will triage inhibitors of mammalian triose phosphate isomerase and the Class I FBPA. G. lamblia FBPA inhibitors identified by the in vitro analyses will be examined for growth inhibition of Giardia trophozoites, and for cytotoxicity in human cells. This assay specifically addresses whether activity observed in the primary screen (AID 2451) is related to inhibition of the coupling assay used, as opposed to inhibition of aldolase. Actives in this assay are considered inconclusive for activity against aldolase.
NCGC Assay Protocol: Step,Parameter,Value,Description 1,Coupling enzyme reagent,2 uL,glyceraldehyde-3-phosphate 2,Compound,23 nL,3.68 nM-57.5 uM final concentration 3,Time,10 min,RT Incubation 4,Substrate/detection Reagent,2 uL,Substrate + enzyme coupling system + AmpLite Red kit 5,Time,20 min,RT Incubation 6,Detector,525 nm/598 nm (Fluorescence),ViewLux Fluorescence Read (Read 1) Notes: 1,Medium-binding black solid-bottom Kalypsys plates. FRD or Kalypsys dispenser. 2,Compound Library (10 mM ,1:5 dilution). Pin-transferred for a [final] range of 3.68 nM-57.5 uM. 3,RT incubation 4,FRD or Kalypsys dispenser, 2 uL of reaction mixture. Bottle kept at 4C and covered in foil to protect from light. 5,RT incubation 6,ViewLux Protocol 1194; Excitation filter wheel A (525/20 Pol; BODIPY TMR FP), Emission filter wheel B (598/25 S; BODIPY TMR FP S). Keywords: Fructose-bisphosphate aldolase, FBPA , Giardia lamblia , Giardia, HTS, Inhibitors
% is set by controls: 0 for no effect and ±100 for the full control effect.

SMILES	activity change, negative = inhibition
CCOc1ccc(C)cc1CN(CCCl)CCCl	inactive: 4.28%
COc1ccc(NC2CCN(CCc3ccccc3)CC2)c(OC)c1	inactive: -6.31%
CCOC(=O)N1CCC(Nc2ccc(F)cc2)CC1	inactive: 4.59%
O=C(NCC1(N2CCCCC2)CCCCC1)c1ccc(F)cc1	inactive: 2.9%
Cc1ccc(OCC(C)C)c(CN(CCCl)CCCl)c1	inactive: -0.229%
CCOC(=O)N1CCC(Nc2cccc(C)c2)CC1	inactive: 0.256%
COc1cc(C(=O)NCC2(N(C)C)CCCCC2)ccc1OC(F)F	inactive: 1.7%
O=C(NCC1(N2CCCCC2)CCCCC1)c1ccc(=O)[nH]c1	inactive: -0.161%
COc1ccc(C(=O)NCC2(N3CCCCC3)CCCCC2)c(OC)c1OC	inactive: -1.61%
CC(C)(C)OC(=O)N1CCC(N(C(=O)c2ccccc2)c2ccc(F)cc2)CC1	inactive: 2.11%
COc1ccc(C(=O)NCC2(N3CCCCC3)CCCCC2)cc1	inactive: -1.73%
CSc1ccccc1C(=O)NCC1(N2CCCCC2)CCCCC1	inactive: 1.33%
O=C(NCC1(N2CCOCC2)CCCCC1)c1cc2ccccc2o1	inactive: -3.23%
Cc1cc(C)cc(N(C(=O)c2ccccc2)C2CCN(C(=O)OC(C)(C)C)CC2)c1	inactive: 0.885%
CCOC(=O)N1CCC(Nc2ccc(OC)cc2)CC1	inactive: -2.18%
N#CC1(Nc2ccccc2)CCN(Cc2ccccc2)CC1	inactive: 6.93%
O=C(OC1CN2CCC1CC2)C1c2ccccc2Oc2ccccc21 (stereo not given)	inactive: 2.64%
O=[N+]([O-])c1cc([N+](=O)[O-])c(OC2CCCCC2O)c([N+](=O)[O-])c1 (stereo not given)	inactive: 14.3%
CN(C)c1cccc(C(=O)NCC2(N3CCCCC3)CCCCC2)c1	inactive: -1.22%
COc1ccc(CN(CCCl)CCCl)cc1Cl	inactive: 0.528%

SMILES	activity change, negative = inhibition
CC(C)c1ccc(NC2CCN(C(=O)OC(C)(C)C)CC2)cc1	inactive: -0.598%
COc1cc(OC)c(C(=O)NCC2(N(C)C)CCCCC2)cc1OC	inactive: 4.62%
COc1ccc2c(c1O)-c1c(O)c(OC)cc3c1[C@H](C2)[N+](C)(C)CC3.O=[N+]([O-])c1cc([N+](=O)[O-])c([O-])c([N+](=O)[O-])c1[O-]	inactive: -16.6%
O=C(OC1CN2CCC1CC2)c1ccc([N+](=O)[O-])cc1 (stereo not given)	inactive: -1.74%
CCCOc1ccc(C(=O)NCC2(N(C)C)CCCCC2)cc1OC	inactive: -0.371%
O=C(NCC1(N2CCCCC2)CCCCC1)c1ccc(OC(F)F)cc1	inactive: 0.913%
O=C(NCC1(N2CCCCC2)CCCCC1)c1cccc([N+](=O)[O-])c1	inactive: -0.817%
N#CC1(Nc2ccccc2)CCN(CCc2ccccc2)CC1	inactive: 2.19%
CCN1CCC(Nc2ccc(Cl)cc2)CC1	inactive: -1.52%
O=C(NCC1(N2CCCCC2)CCCCC1)c1cccc(C(F)(F)F)c1	inactive: -0.226%
O=[N+]([O-])c1cc([N+](=O)[O-])c(NCC2CCS(=O)(=O)C2)c([N+](=O)[O-])c1 (stereo not given)	inactive: -15.7%
CN1CCN(CCOC(=O)C(O)(c2ccccc2)c2ccccc2)CC1	inactive: 1.85%
COc1ccc(NC2CCN(C(=O)OC(C)(C)C)CC2)cc1	inactive: -7.45%
COc1cc(C(=O)NCC2(N3CCCCC3)CCCCC2)ccc1OC(F)F	inactive: 3.58%
O=C(NCC1(N2CCOCC2)CCCCC1)c1cc(=O)[nH]c2ccccc12	inactive: 0.414%
CC(C)(C)OC(=O)N1CCC(N(C(=O)c2ccccc2)c2ccc(Cl)cc2)CC1	inactive: -1.56%
N#Cc1ccc(C(=O)NCC2(N3CCCCC3)CCCCC2)cc1	inactive: 0.729%
CCOC(=O)C(CC)C1=NC(C)(C)Cc2ccccc21.O=[N+]([O-])c1cc([N+](=O)[O-])c(O)c([N+](=O)[O-])c1 (stereo not given)	inactive: 11.6%
CCCN1CCC(Nc2cc(OC)cc(OC)c2)CC1	inactive: -14%
c1ccc(CN2CCC(Nc3ccccc3)CC2)cc1	inactive: 1.34%

SMILES	activity change, negative = inhibition
CN(C)C1(CNC(=O)c2cccc(C#N)c2)CCCCC1	inactive: 1.75%
COc1ccc(C(=O)NCC2(N3CCOCC3)CCCCC2)cc1OC	inactive: -1.58%
N/C(=N\O)c1c(N)no[n+]1[O-]	inactive: 2.19%
CCOC(=O)N1CCC(Nc2ccc(C)cc2)CC1	inactive: 1.06%
O=C(O)c1cccc(Nc2c([N+](=O)[O-])cc([N+](=O)[O-])cc2[N+](=O)[O-])c1	inactive: 12.6%
O=C(OC1CN2CCC1CC2)C1c2ccccc2C=Cc2ccccc21 (stereo not given)	inactive: -0.752%
CN1CCC(Nc2ccc(F)c(Cl)c2)CC1	inactive: 0.744%
CCOc1ncccc1C(=O)NCC1(N2CCOCC2)CCCCC1	inactive: 3.76%
CCCOc1ccc(C(=O)NCC2(N(C)C)CCCCC2)cc1	inactive: 0.176%
O=C(O)C1(Nc2ccccc2)CCN(Cc2ccccc2)CC1	inactive: -0.629%
CC(C)(C)OC(=O)N1CCC(Nc2ccccc2)CC1	inactive: -0.0558%
CCC(CO)(C(=O)OC1CN2CCC1CC2)c1ccccc1 (stereo not given)	inactive: 1.59%
COc1cc(OC)cc(C(=O)NCC2(N3CCOCC3)CCCCC2)c1	inactive: 0.74%
COc1cccc(C(=O)N(c2cc(C)cc(C)c2)C2CCN(C(=O)OC(C)(C)C)CC2)c1	inactive: -0.311%
CCCOc1ccc(C)cc1CN(CCCl)CCCl	inactive: 0.315%
CN1CCC(Nc2ccc(Cl)cc2)CC1	inactive: 1.28%
COc1cc(OC)cc(C(=O)NCC2(N3CCCCC3)CCCCC2)c1	inactive: 1.58%
Fc1ccccc1NC1CCN(Cc2ccccc2)CC1	inactive: 0.236%
CCN1CCC(Nc2cccc(F)c2)CC1	inactive: -2.37%
CN(C)c1ccc(C(=O)NCC2(N3CCCCC3)CCCCC2)cc1	inactive: 1.24%
